Measured values from several laboratories, pooled; numbers as filed in NIAID ChemDB.

Shared fields: growth or infection tests

Rows are shuffled and stem from different studies. An empty or dashed field is not shown. Inhibition is in % at the dose shown (toxicity tests: loss of growth or viability). ECn: concentration that inhibits the pathogen or its effect by n%. MIC50, MIC90 and the like: level of inhibition, or share of isolates inhibited.

| smiles | measure | tested at | agent | strain | cells | method | result |
|---|---|---|---|---|---|---|---|
| NCCS(=O)(=O)O | inhibition | 10 µg/mL | Herpes simplex virus | - | Human amnion AV3 cells | cytopathic effect | 0% |
| Oc1ccccc1N=Cc1cccc(O)c1O | MIC99 | - | Cryptococcus gattii | L24/01 | - | - | 2.8 µg/mL |
| CCOC(=O)c1ccc(OCCC2CCN(c3ccc(C)nn3)CC2)cc1 | EC50 | - | Rhinovirus | 58750 (ICAM-1 receptor group 43) | KB | neutral red | 0.089 µM |
| CC(C)(O)c1cn(-c2ccccc2)nn1 | inhibition | 2048 µg/mL | Candida tropicalis | URM 1150 | - | broth dilution | 0% |
| C/C=C\[C@@H]1C[C@H](C(=O)O)N[C@H]1[C@@H](NC(C)=O)[C@](C)(CCC)OC | EC50 | - | Influenza A virus | Influenza A H3N2 isolate C32C | MDCK | plaque count | 0.5 µg/mL |
| CCOC(=O)/C=C/[C@H](C[C@@H]1CCNC1=O)NC(=O)[C@@H](CC(=O)[C@@H](NC(=O)c1cc(C)on1)C(C)C)Cc1ccc(F)cc1 | EC50 | - | Rhinovirus | Isolate 12 | OHIO HELA-I | cytopathic effect / visual reading | <0.01 µg/mL |
| CC(C)(O)c1cn(-c2ccc3ccccc3c2)nn1 | inhibition | 2048 µg/mL | Candida parapsilosis | ATCC 22019 | - | broth dilution | 0% |
| C=CCc1ccc(O)c(OC)c1 | MIC90 | - | Candida glabrata | 2621 | - | turbidity | 500 µg/mL |
| Cc1ccc(-n2cc(C(C)(C)O)nn2)cc1C | inhibition | 2048 µg/mL | Candida parapsilosis | URM 4818 | - | broth dilution | 0% |
| CCc1cn([C@@H]2O[C@H](CO)[C@@H](O)[C@@H]2O)c(=O)[nH]c1=O | inhibition | 1000 µg/mL | Varicella zoster virus | YS | HELF | plaque count | 61% |
| Oc1ccccc1N=Cc1ccc2c(c1)OCO2 | MIC99 | - | Cryptococcus gattii | LMM 818 | - | - | 11.3 µg/mL |
| Cc1cn([C@@H]2O[C@H](CO)[C@@H](O)[C@@H]2F)c(=O)nc1N | inhibition | 0.1 µg/mL | Varicella zoster virus | Kawaguchi | HELF | plaque count | 100% |
| O=C1C(c2[nH]c3ccc(S(=O)(=O)O)cc3c2O)=Nc2ccc(S(=O)(=O)O)cc21 | inhibition | 10 µg/mL | Adenovirus | TYPE 3 | Human amnion AV3 cells | cytopathic effect | 0% |
| Nc1nc2c(ncn2COCCO)c(=O)[nH]1 | inhibition | 10 µg/mL | Varicella zoster virus | Ohtomo | HELF | plaque count | 100% |
| Cc1cc(-c2ccc(N=Nc3ccc4c(S(=O)(=O)O)cc(S(=O)(=O)O)c(N)c4c3O)c(C)c2)ccc1N=Nc1ccc2c(S(=O)(=O)O)cc(S(=O)(=O)O)c(N)c2c1O | inhibition | 10 µg/mL | Adenovirus | TYPE 3 | Human amnion AV3 cells | cytopathic effect | 0% |
| CCC(CC)[C@H](NC(C)=O)[C@@H]1[C@H](O)[C@@H](C(=O)O)C[C@H]1N=C(N)N | EC50 | - | Influenza A virus | Influenza A/Sydney/05/97 (H3N2) | MDCK | - | 0.19 µM |
| Nc1ccc2cc([N+](=O)[O-])cc(S(=O)(=O)[O-])c2c1 | inhibition | 50 µg/mL | Herpes simplex virus | - | Human amnion AV3 cells | cytopathic effect | 0% |
| CCOC(=O)c1c(C)nc(NCCCCNc2ccnc3cc(Cl)ccc23)nc1-c1ccc(F)cc1 | MIC99 | - | Cryptococcus gattii | ATCC 32608 | - | - | 16 µg/mL |
| Nc1ccc(S(=O)(=O)O)cc1 | inhibition | 5 µg/mL | Herpes simplex virus | - | Human amnion AV3 cells | cytopathic effect | 40% |
| O=c1[nH]c(=O)n([C@H]2C[C@H](O)[C@@H](CO)O2)cc1/C=C/Br | inhibition | 0.1 µg/mL | Varicella zoster virus | YS | HELF | plaque count | 100% |
| Nc1ccc2cc(S(=O)(=O)O)cc(S(=O)(=O)O)c2c1 | inhibition | 5 µg/mL | Herpes simplex virus | - | Human conjunctiva cells | cytopathic effect | 0% |
| CC(C)(O)c1cn(-c2cccc3ccccc23)nn1 | inhibition | 2048 µg/mL | Candida albicans | URM 4126 | - | broth dilution | 0% |
| O=S(=O)(O)c1ccc2ccc(S(=O)(=O)O)cc2c1 | inhibition | 50 µg/mL | Herpes simplex virus | - | Human amnion AV3 cells | cytopathic effect | 10% |
| CCOC(=O)c1cnc(NCCCCNc2ccnc3cc(Cl)ccc23)nc1C | MIC99 | - | Cryptococcus gattii | 135L/03 | - | - | 8 µg/mL |
| O=S(=O)([O-])c1ccc2c(NS(=O)(=O)c3ccccc3)cc(S(=O)(=O)[O-])cc2c1 | inhibition | 10 µg/mL | Adenovirus | TYPE 3 | Human amnion AV3 cells | cytopathic effect | 0% |
| Nc1nc(=O)n([C@@H]2O[C@H](CO)[C@@H](O)[C@@H]2F)cc1I | inhibition | 0.001 µg/mL | Varicella zoster virus | HIRAI | HELF | plaque count | 0% |
| O=S(=O)(O)c1ccc(N=Nc2c(O)ccc3cc(S(=O)(=O)O)ccc23)cc1 | inhibition | 10 µg/mL | Herpes simplex virus | - | Human conjunctiva cells | cytopathic effect | 0% |
| Oc1ccccc1N=Cc1ccccc1 | MIC99 | - | Cryptococcus gattii | 1913 ER | - | - | 8 µg/mL |

Repeating the final 3 entries:

{"smiles": "Nc1nc(=O)n([C@@H]2O[C@H](CO)[C@@H](O)[C@@H]2F)cc1I", "measure": "inhibition", "tested at": "0.001 µg/mL", "agent": "Varicella zoster virus", "strain": "HIRAI", "cells": "HELF", "method": "plaque count", "result": "0%"}
{"smiles": "O=S(=O)(O)c1ccc(N=Nc2c(O)ccc3cc(S(=O)(=O)O)ccc23)cc1", "measure": "inhibition", "tested at": "10 µg/mL", "agent": "Herpes simplex virus", "cells": "Human conjunctiva cells", "method": "cytopathic effect", "result": "0%"}
{"smiles": "Oc1ccccc1N=Cc1ccccc1", "measure": "MIC99", "agent": "Cryptococcus gattii", "strain": "1913 ER", "result": "8 µg/mL"}